Compound potency records, mixed from different reports. Data source: NIAID ChemDB in PubChem.

Common to all: whole-cell or culture tests; organism: Mouse cytomegalovirus; cells: MEF; measure: EC50

ECn is the concentration giving n% inhibition of infection, replication or growth. Lines come from different laboratories, so protocols vary. An empty or dashed field is not shown.

CCCCCOc1nc(N)nc2c1ncn2/C=C1/C[C@@H]1CO ; read by: plaque count ; value: 1.4 µM
CCCCCCCC/C=C\CCCCCCCOCCCOP(=O)(O)CO[C@H](CO)Cn1ccc(N)nc1=O ; read by: plaque count ; value: 0.004 µM
CCCCCCCC/C=C\CCCCCCCOCCCOP1(=O)CO[C@@H](Cn2ccc(N)nc2=O)CO1 ; strain: SMITH ; read by: plaque count ; value: 0.007 µM
C#CCNc1nc(N)nc2c1ncn2/C=C1/C[C@@H]1CO ; read by: plaque count ; value: 0.4 µM
C#CCNc1nc(N)nc2c1ncn2/C=C1/C[C@@H]1CO ; read by: plaque count ; value: 0.4 µM
Nc1nc2c(ncn2/C=C2/CC2(CO)CO)c(=O)[nH]1 ; strain: SMITH ; read by: plaque count ; value: 0.3 µM
Nc1nc2c(ncn2/C=C2/CC2(CO)CO)c(=O)[nH]1 ; read by: plaque count ; value: 0.3 µM
CCCCCCCCCCCCCCCCOP(=O)(O)CO[C@H](CO)Cn1ccc(N)nc1=O ; read by: plaque count ; value: 0.02 µM
C=CCNc1nc(N)nc2c1ncn2/C=C1/C[C@@H]1CO ; read by: plaque count ; value: 0.3 µM
COC(=O)[C@H](C)NP(=O)(OC[C@H]1C/C1=C/n1cnc2c(N)nc(N)nc21)Oc1ccccc1 ; value: 3.2 µM
Nc1nc(NC2CC2)c2ncn(/C=C3/C[C@@H]3CO)c2n1 ; read by: plaque count ; value: 0.1 µM
CCCCCCCCCCCCOCCCOP(=O)(O)CO[C@H](CO)Cn1ccc(N)nc1=O ; strain: SMITH ; read by: plaque count ; value: 0.015 µM
COC(=O)[C@H](C)NP(=O)(OC[C@H]1C/C1=C/n1cnc2c(N)nc(N)nc21)Oc1ccccc1 ; read by: plaque count ; value: 3.2 µM
CCCCCCCCCCCCCCOCCCOP(=O)(O)CO[C@H](CO)Cn1ccc(N)nc1=O ; strain: SMITH ; read by: plaque count ; value: 0.004 µM
COC(=O)[C@H](C)NP(=O)(OC[C@H]1C/C1=C/n1cnc2c(OC)nc(N)nc21)Oc1ccccc1 ; read by: plaque count ; value: 0.24 µM
CCCCCCCCCCCCCCCCCCOCCOP1(=O)CO[C@@H](Cn2ccc(N)nc2=O)CO1 ; strain: SMITH ; read by: plaque count ; value: 0.003 µM
CCCCCCCCCCCCOCCCOP1(=O)CO[C@@H](Cn2ccc(N)nc2=O)CO1 ; read by: plaque count ; value: 0.013 µM
COc1nc(N)nc2c1ncn2/C=C1/C[C@H]1CO ; value: 0.4 µM
CCCCCCCCCCCCCCCCCCCCOCCCOP(=O)(O)CO[C@H](CO)Cn1ccc(N)nc1=O ; strain: SMITH ; read by: plaque count ; value: 0.067 µM
C=CCOc1nc(N)nc2c1ncn2/C=C1/C[C@@H]1CO ; read by: plaque count ; value: 0.3 µM
Nc1ncnc2c1ncn2/C=C1/CC1(CO)CO ; read by: plaque count ; value: 0.27 µM
Nc1ncnc2c1ncn2C=C1CC1CO ; read by: plaque count ; value: 2.1 µM
C=CCNc1nc(N)nc2c1ncn2/C=C1/C[C@@H]1CO ; read by: plaque count ; value: 0.3 µM
Nc1nc(NC2CC2)c2ncn(C=C3CC3CO)c2n1 ; value: 0.37 µM
CCCCCCCCCCCCCCCCOP1(=O)CO[C@@H](Cn2ccc(N)nc2=O)CO1 ; read by: plaque count ; value: 0.13 µM
Nc1nc(OCC2CC2)c2ncn(/C=C3/C[C@@H]3CO)c2n1 ; read by: plaque count ; value: 0.3 µM
O=C(O)P(=O)(O)O ; read by: plaque count ; value: 57 µg/mL
COc1cc(OC)c(NC(=S)Nc2ccc(NC(C)=O)cc2)cc1Cl ; strain: SMITH ; value: >20 µM
Nc1ncnc2c1ncn2/C=C1/C[C@@H]1CO ; read by: plaque count ; value: 0.55 µM
Nc1nc2c(ncn2C=C2CC2CO)c(=O)[nH]1 ; value: 0.3 µM
CCCCCSc1nc(N)nc2c1ncn2/C=C1/C[C@@H]1CO ; read by: plaque count ; value: 1.4 µM

A second listing of 4 rows from above:

smiles	strain	read by	value
COC(=O)[C@H](C)NP(=O)(OC[C@H]1C/C1=C/n1cnc2c(N)nc(N)nc21)Oc1ccccc1	-	plaque count	3.2 µM
CCCCCOc1nc(N)nc2c1ncn2/C=C1/C[C@@H]1CO	-	plaque count	1.4 µM
O=C(O)P(=O)(O)O	-	plaque count	57 µg/mL
Nc1ncnc2c1ncn2/C=C1/CC1(CO)CO	-	plaque count	0.27 µM